Anti-infective test results gathered from many reports (values: NIAID ChemDB through PubChem).

Shared fields: whole-cell or culture tests; species: Mycobacterium tuberculosis

MIC50, MIC90 and the like: level of inhibition, or share of isolates inhibited. ECn: concentration that inhibits the pathogen or its effect by n%. Blank or dashed fields: not listed here. Percent inhibition refers to the dose given; in toxicity tests it is the harm to the cells. Lines come from different laboratories, so protocols vary. MIC bound: limit read from a one-dose screen.

smiles,dose,changes,measure,setting,strain,method,cell line,result
O=c1oc2ccc(Cl)cc2c(=S)n1-c1ccc(F)cc1,-,-,MIC,21 d,My 331/88,-,-,4 µM
CO[C@H]1/C=C/O[C@@]2(C)Oc3c(C)c(O)c4c(=O)c(c5oc6cc(N7CCN(CC(C)C)CC7)cc(=O)c6nc5c4c3=C2O)NC(=O)/C(C)=C\C=C\[C@H](C)[C@H](O)[C@@H](C)[C@@H](O)[C@@H](C)[C@H](OC(C)=O)[C@@H]1C,-,-,MIC,-,2227 (rifampin-resistant),-,-,0.05 µg/mL
C[C@@H]1CN(c2c(F)c(N)c3c(=O)c(C(=O)O)cn(C4CC4)c3c2F)C[C@H](C)N1,-,-,MIC,-,ATCC35838,-,-,0.03 µg/mL
Cc1ccc2oc(=O)n(-c3ccc(F)cc3)c(=S)c2c1,-,-,MIC,21 d,My 331/88,-,-,8 µM
Nc1ccc([As](=O)(O)O)cc1,-,-,MIC,-,H37Rv,-,-,>100 µg/mL
Cc1c([N+](=O)[O-])oc2ccc3ccccc3c12,-,-,MIC,-,H37Rv,-,VERO,3.13 µg/mL
O=CNc1ccccc1-c1ccccc1,-,-,MIC,-,H37Rv,-,-,>100 µg/mL
c1ccc(C(CCNCCNC2CCc3ccccc32)c2ccccc2)cc1,-,-,MIC,-,-,-,-,12.5 µM
CC(C)c1ccc(CC(=O)O)cc1,-,-,MIC,-,H37Rv,-,-,50 µg/mL
NC1CCN(c2c(F)cc3c(=O)c(C(=O)O)cn(C4CC4)c3c2Cl)C1,-,-,MIC50,-,MDR,-,-,1 µg/mL
NC(=S)NN=C1CCC(=NNC(N)=S)CC1,-,-,MIC bound,-,H37Rv,BACTEC,-,>12.5 µg/mL
C[C@H]1COc2c(N3CCN(C)CC3)c(F)cc3c(=O)c(C(=O)O)cn1c23,-,-,MIC,-,ATCC 35828,-,-,0.25 µg/mL
CCCCC(CC)CN1CN(CC(CC)CCCC)CC(C)(NCCNCc2cc(OC)c(OC)c(OC)c2)C1,-,-,MIC,-,-,-,-,12.5 µM
O=C(O)CC(Br)C(=O)O,-,-,MIC,-,H37Rv,-,-,>100 µg/mL
O=C1c2ccccc2CN(c2ccccc2)C(=Nc2ccccc2)N1c1ccccc1,12.5 µg/mL,-,inhibition,-,H37Rv,BACTEC,-,8%
CO[C@H]1/C=C/O[C@@]2(C)Oc3c(C)c(O)c4c(O)c(c(/C=N/N5CCN(C/C=C/c6ccccc6)CC5)c(O)c4c3C2=O)NC(=O)/C(C)=C\C=C\[C@H](C)[C@H](O)[C@@H](C)[C@@H](O)[C@@H](C)[C@H](OC(C)=O)[C@@H]1C,-,-,MBC,-,2831 (rifampin-sensitive),-,-,0.2 µg/mL
CC[C@H]1OC(=O)[C@H](C)[C@@H](O[C@H]2C[C@@](C)(OC)[C@@H](O)[C@H](C)O2)[C@H](C)[C@@H](O[C@@H]2O[C@H](C)C[C@H](N(C)C)[C@H]2O)[C@](C)(O)C[C@@H](C)CN(C)[C@H](C)[C@@H](O)[C@]1(C)O,-,-,MIC,-,ATCC 35820,-,-,>8 µg/mL
CN(C)[C@@H]1C(=O)C(C(=O)NCN[C@@H](Cc2ccc(N(CCCl)CCCl)cc2)C(=O)O)=C(O)[C@@]2(O)C(=O)C3=C(O)c4c(O)cccc4[C@@](C)(O)[C@H]3C[C@@H]12,12.5 µg/mL,-,inhibition,-,H37Rv,BACTEC,-,69%
CCCCCc1cc(OC)c2ccccc2n1,-,-,MIC,-,MT9,-,-,12.5 µg/mL
O=C(NCCCBr)c1csc(-c2csc(CCNC(=O)C(F)(F)F)n2)n1,12.8 µg/mL,-,inhibition,-,H37Rv,BACTEC,-,6%
O=C1c2cc(S(=O)(=O)[O-])c([O-])c([N+](=O)[O-])c2C(=O)c2cc(S(=O)(=O)[O-])c([O-])c([N+](=O)[O-])c21.[K+].[K+].[K+].[K+],-,-,MIC,-,H37Rv,-,-,>100 µg/mL
CC(=O)Nc1cc(OCC(=O)O)ccc1S(=O)(=O)c1ccc(OCC(=O)O)cc1NC(C)=O,-,-,MIC,-,H37Rv,BACTEC,-,≥12.5 µg/mL
CC(C)=CCC/C(C)=C/CNCCN(Cc1ccccc1)Cc1ccccc1,-,-,MIC,-,-,-,-,25 µM
CC(C)=Nn1cnc(C(=N)C#N)c1N,12.5 µg/mL,-,inhibition,-,H37Rv,BACTEC,-,4%
CN1c2ccccc2CCC1CCc1ccc2c(c1)OCO2,-,-,MIC,-,MT4,-,-,>339 µg/mL
COc1ccc(OC)c(Sc2nc(Cl)nc3nc[nH]c23)c1.O,-,-,MIC,-,H37Ra,-,-,>12.8 µg/mL
CC(=O)Nc1ccc(C(=O)N2C(=N)C(C#N)=C(O)/C2=C\c2ccc(Cl)c(Cl)c2)cc1,-,-,MIC bound,-,H37Rv,resazurin,-,>6.25 µg/mL
CCCCCCCCCCCCCCCCCCNCCCCCCCCCCCCCCCCCC.Cl,-,-,MIC,-,H37Rv,-,-,>100 µg/mL
CCOc1ccccc1CNCCNC12CC3CC(CC(C3)C1)C2,-,-,MIC,-,-,-,-,25 µM
CN[C@@H]1[C@H](O[C@H]2[C@H](O[C@H]3[C@H](O)[C@@H](O)[C@H](N=C(N)N)[C@@H](O)[C@@H]3N=C(N)N)O[C@@H](C)[C@]2(O)C=O)O[C@@H](CO)[C@H](O)[C@H]1O,-,-,MIC,-,TN4826 (H),-,-,>2 µg/mL
O=c1c2sc3ccccc3sc=2c(=O)c2c(Cl)c(Cl)c(Cl)c(Cl)c12,-,-,MIC bound,-,H37Rv,BACTEC,-,>6.25 µg/mL
OCCCCCNCCNCCCCc1ccccc1,-,-,MIC,-,-,-,-,25 µM
CO[C@H]1/C=C/O[C@@]2(C)Oc3c(C)c(O)c4c(O)c(c(/C=N/N5CCN(C)CC5)c(O)c4c3C2=O)NC(=O)/C(C)=C\C=C\[C@H](C)[C@H](O)[C@@H](C)[C@@H](O)[C@@H](C)[C@H](OC(C)=O)[C@@H]1C,-,-,MIC,-,TN728,-,-,>32 µg/mL
Cc1ccnc(NS(=O)(=O)c2ccc(N=Nc3ccc(N)nc3N)cc2)n1,12.5 µg/mL,-,inhibition,-,H37Rv,BACTEC,-,18%
CC(C)=CCC/C(C)=C/CNCCNC(C)(C)CC(C)(C)C,-,-,MIC,-,-,-,-,25 µM
O=c1oc2ccc(F)cc2c(=S)n1-c1ccccc1,-,-,MIC,21 d,My 331/88,-,-,4 µM
CC[C@@H](CO)NCCN[C@@H](CC)CO,-,-,MIC,-,MDR13,broth dilution / resazurin,-,32 µg/mL
Nc1ccc(Nc2ccccc2)cc1,-,-,MIC,-,H37Rv,-,-,6.25 µg/mL
Cc1ccccc1Sc1ncccn1,-,-,MIC90,-,H37Rv,-,-,>6.25 µg/mL
O=C(O)CCSc1nc2ccccc2s1,-,-,MIC,-,H37Rv,-,-,25 µg/mL
C[C@H]1COc2c(N3CCN(C)CC3)c(F)cc3c(=O)c(C(=O)O)cn1c23,-,INH RIF resistant,MIC,-,Clinical isolate BRF 45,resazurin,-,0.25 µg/mL
CSC(=S)NNC(C)c1nccc2ccccc12,-,-,MIC,-,EMB-R,-,-,6.4 µg/mL
CO[C@H]1/C=C/O[C@@]2(C)Oc3c(C)c(O)c4c(O)c(c(/C=N/N5CCN(C6CCCC6)CC5)c(O)c4c3C2=O)NC(=O)/C(C)=C\C=C\[C@H](C)[C@H](O)[C@@H](C)[C@@H](O)[C@@H](C)[C@H](O)[C@@H]1C,-,-,MIC,-,Isolate 900201 drug-susceptible,-,-,0.5 µg/mL
Cc1cc(C)c2c(c1)NP(=O)(c1ccccc1)N2,6.25 µg/mL,-,inhibition,-,H37Rv,resazurin,-,21%
CC(C)(CO)NCCNCCc1c[nH]c2ccccc12,-,-,MIC,-,-,-,-,25 µM
Nc1ccc(C(=O)Nc2ccc3ccccc3c2)cc1,-,-,MIC,-,H37Rv,-,-,>100 µg/mL
Oc1ccc(CCNCCNCc2ccccc2F)cc1,-,-,MIC,-,-,-,-,50 µM
CCCOC(=O)c1cc(O)c(O)c(O)c1.O,-,-,MIC,-,H37Rv,-,-,>100 µg/mL
COc1ccc(Sc2ccncc2)cc1OC,6.25 µg/mL,-,inhibition,-,H37Rv,-,-,0%
Oc1ccc(N=Cc2ccccc2)cc1,-,-,MIC,-,H37Rv,-,-,100 µg/mL
OCC(O)COCCCCCCCCCCCC1C=CCC1,-,-,MIC bound,-,H37Rv,BACTEC,-,≤12.5 µg/mL
CCCCCC(C)NCCNC1(C)CN(CC(CC)CCCC)CN(CC(CC)CCCC)C1,-,-,MIC,-,-,-,-,25 µM
C=CCN(CC=C)C(=O)Nc1ccc(C(=O)N/N=C/c2cccc(OC)c2OC)cc1,6.25 µg/mL,-,inhibition,-,H37Rv,resazurin,-,23%
O=NN1CCCCC1,-,-,MIC,-,H37Rv,-,-,>100 µg/mL
NNC(=O)c1ccncc1,-,-,MIC,-,6S,-,-,0.1 µg/mL
CCOC(=O)Nc1cc2c(cn1)N=C(CN(C)c1ccc(OC)cc1)CN2,-,-,EC50,-,H37Rv,-,-,>12.5 µg/mL
O=c1nc(SCc2cccc3ccccc23)c2[nH]cnc2[nH]1,-,-,MIC90,-,H37Rv,-,-,>6.25 µg/mL
CO[C@H]1/C=C/O[C@@]2(C)Oc3c(C)c(O)c4c(O)c(c(/C=N/N5CCN(C)CC5)c(O)c4c3C2=O)NC(=O)/C(C)=C\C=C\[C@H](C)[C@H](O)[C@@H](C)[C@@H](O)[C@@H](C)[C@H](OC(C)=O)[C@@H]1C,-,-,MIC,-,4S,-,-,1 µg/mL
CC(O)C1(O)C(O)CC(OC2c3cc4c(c(O)c3[C@@H]3C[C@@]2(C)OC32C=c3cc[nH]c3=N2)C(=O)c2cccc(O)c2C4=O)OC1C,12.5 µg/mL,-,inhibition,-,H37Rv,BACTEC,-,99%
COc1ccc(C(=O)C(=O)c2ccc(OC)cc2)cc1,-,-,MIC,-,H37Rv,-,-,>100 µg/mL
COc1ccc2oc(=S)n(-c3ccc(C(F)(F)F)cc3)c(=S)c2c1,-,-,MIC,14 d,My 331/88,-,-,16 µM
CCOC(=O)C(CC)C(=O)C(F)(F)F,-,-,MIC,-,H37Rv,-,-,>100 µg/mL
COc1cccc(CSc2ncccn2)c1,-,-,MIC90,-,H37Rv,-,-,>6.25 µg/mL
CCOC(=O)N(c1ccccc1)c1cc(Cl)c([N+](=O)[O-])c(N)n1,12.5 µg/mL,-,inhibition,-,H37Rv,-,-,0%
COc1cc(NCCCCN2C(=O)c3ccccc3C2=O)c2ncccc2c1,-,-,MIC,-,H37Rv,-,-,25 µg/mL
CC(C)c1ccc2c(c1)CC[C@H]1[C@](C)(CNCCNCc3ccccc3F)CCC[C@]21C,-,-,MIC,-,-,-,-,12.5 µM
NC(=O)c1cnccn1,-,-,MIC,-,Isolate F57636 (INH RIF-resistant),-,-,>900 µg/mL
O=c1n(-c2ccccc2)c(=O)n2n1C1/C=C\C=C/C2C2CCC21,-,-,MIC bound,-,H37Rv,resazurin,-,>6.25 µg/mL
Nc1ccc(S(=O)(=O)c2ccccc2N)cc1,-,-,MIC,-,H37Rv,-,-,100 µg/mL
CCC1=NOC(C)C1C(=O)OCc1ccccc1,-,-,MIC bound,-,H37Rv,BACTEC,-,>12.5 µg/mL
CCOC(=O)Nc1cc(NCC(=O)CNc2ccc(C(=O)OCC)cc2)c([N+](=O)[O-])c(N)n1,12.5 µg/mL,-,inhibition,-,H37Rv,-,-,0%
O=C(O)CNc1ccc(C(=O)CCl)cc1,-,-,MIC,-,H37Rv,-,-,>100 µg/mL
Cc1coc(NS(=O)(=O)c2ccc(N=Nc3ccc(O)c4ncccc34)cc2)c1C,-,-,MIC bound,-,H37Rv,BACTEC,-,>12.5 µg/mL
CCOC(=O)Nc1cc2[nH]c(=S)n3c(=S)[nH]c(n1)c23,-,-,EC50,-,H37Rv,-,-,>12.5 µg/mL
O=c1[nH]c2ccccc2o1,-,-,MIC,-,H37Rv,-,-,100 µg/mL
COc1ccc(Sc2ncccn2)cc1,6.25 µg/mL,-,inhibition,-,H37Rv,-,-,0%
c1csc(CCc2cccs2)c1,-,-,MIC,-,H37Rv,-,-,100 µg/mL
CCCCC(CC)CN1CN(CC(CC)CCCC)CC(C)(NCCNCC(O)c2ccccc2)C1,-,-,MIC,-,-,-,-,12.5 µM
O=C1OC(COCC#Cc2ccccc2)CN1c1ccccc1,12.5 µg/mL,-,inhibition,-,H37Rv,BACTEC,-,7%
CCOc1ccnc(N)n1,-,-,MIC,-,H37Rv,-,-,>100 µg/mL
N#Cc1nc(CC(=O)c2ccccc2Cl)c(CC(=O)c2ccccc2Cl)nc1C#N,-,-,MIC,-,H37Rv,BACTEC,-,≥12.5 µg/mL
CCOC(=O)Nc1cc(Nc2ccc(Cl)cc2)c(N)c(N)n1,-,-,EC50,-,H37Rv,-,-,<12.5 µg/mL
CC1COc2c(N3CCN(C)CC3)c(F)cc3c(=O)c(C(=O)O)cn1c23,-,-,MIC50,-,DRUG-SUS,-,-,0.5 µg/mL
C[C@@H](NCCNC1CCCCCCC1)C1CCCCC1,-,-,MIC,-,-,-,-,50 µM
CCCCC(CC)CN1CN(CC(CC)CCCC)CC(C)(NCCNC(C)Cc2ccc(Cl)cc2)C1,-,-,MIC,-,-,-,-,50 µM

For reference, 6 entries again:

| smiles | dose | changes | measure | setting | strain | method | cell line | result |
|---|---|---|---|---|---|---|---|---|
| COc1ccc2oc(=S)n(-c3ccc(C(F)(F)F)cc3)c(=S)c2c1 | - | - | MIC | 14 d | My 331/88 | - | - | 16 µM |
| Cc1ccccc1Sc1ncccn1 | - | - | MIC90 | - | H37Rv | - | - | >6.25 µg/mL |
| CN(C)[C@@H]1C(=O)C(C(=O)NCN[C@@H](Cc2ccc(N(CCCl)CCCl)cc2)C(=O)O)=C(O)[C@@]2(O)C(=O)C3=C(O)c4c(O)cccc4[C@@](C)(O)[C@H]3C[C@@H]12 | 12.5 µg/mL | - | inhibition | - | H37Rv | BACTEC | - | 69% |
| CCOC(=O)Nc1cc(NCC(=O)CNc2ccc(C(=O)OCC)cc2)c([N+](=O)[O-])c(N)n1 | 12.5 µg/mL | - | inhibition | - | H37Rv | - | - | 0% |
| N#Cc1nc(CC(=O)c2ccccc2Cl)c(CC(=O)c2ccccc2Cl)nc1C#N | - | - | MIC | - | H37Rv | BACTEC | - | ≥12.5 µg/mL |
| CO[C@H]1/C=C/O[C@@]2(C)Oc3c(C)c(O)c4c(=O)c(c5oc6cc(N7CCN(CC(C)C)CC7)cc(=O)c6nc5c4c3=C2O)NC(=O)/C(C)=C\C=C\[C@H](C)[C@H](O)[C@@H](C)[C@@H](O)[C@@H](C)[C@H](OC(C)=O)[C@@H]1C | - | - | MIC | - | 2227 (rifampin-resistant) | - | - | 0.05 µg/mL |